Anti-infective test results gathered from many reports (values: NIAID ChemDB through PubChem).

Shared fields: whole-cell or culture tests; agent: Human cytomegalovirus; method: virus yield; endpoint: EC50

ECn is the concentration giving n% inhibition of infection, replication or growth.

{"smiles": "OCC(CO)OCn1c(Br)nc2c(Cl)cc(Cl)cc21", "result": "<50 µM"}
{"smiles": "Nc1nc2c(ncn2COC(CO)CO)c(=O)[nH]1", "cell line": "MRC-5", "result": ">25 µM"}
{"smiles": "Nc1nc2c(ncn2COC(CO)CO)c(=O)[nH]1", "strain or isolate": "AD169", "cell line": "HFF", "result": "1.2 µM"}
{"smiles": "O=C(Nc1ccc(NC(=S)Nc2cc3ccccc3o2)cc1)c1nccc2ccccc12", "cell line": "HFF", "result": ">10 µg/mL"}
{"smiles": "Nc1ncnc2c1c(I)cn2COC(CO)CO", "strain or isolate": "TOWNE", "cell line": "HFF", "result": "<0.9 µM"}
{"smiles": "Nc1ncnc2c1ncn2C=C1CC1CO", "strain or isolate": "TOWNE", "cell line": "KB", "result": "<1 µM"}
{"smiles": "OCC(CO)OCn1cc(Cl)c2c(NO)ncnc21", "strain or isolate": "TOWNE", "cell line": "HFF", "result": "<24 µM"}
{"smiles": "Nc1nc2c(ncn2COC(CO)CO)c(=O)[nH]1", "strain or isolate": "C4 (BDCRB-resistant)", "cell line": "HFF", "result": "<1.6 µM"}
{"smiles": "Nc1ncnc2c1c(Br)cn2COC(CO)CO", "strain or isolate": "TOWNE", "cell line": "HFF", "result": "<1.9 µM"}
{"smiles": "OC[C@H]1O[C@@H](n2c(Br)nc3cc(Cl)c(Cl)cc32)[C@H](O)[C@@H]1O", "strain or isolate": "TOWNE", "cell line": "HFF", "result": "<0.41 µM"}
{"smiles": "CCC(C)Nc1ccc(Sc2ccc(O)cc2)cc1", "result": "30 µM"}
{"smiles": "O=C(NCc1ccc(Cl)cc1)c1c[nH]c2c(F)cc(CCCO)cc2c1=O", "strain or isolate": "DAVIS", "result": "<4.8 µM"}
{"smiles": "CC(C)Nc1nc2cc(Cl)c(Cl)cc2n1[C@@H]1OC[C@@H](O)[C@H]1O", "strain or isolate": "TOWNE", "cell line": "HFF", "result": "<5 µM"}
{"smiles": "COc1cc(NC(=O)c2ccccc2F)ccc1NC(=S)NC1=CC(Cl)C(C)(OC)C=C1", "cell line": "HFF", "result": "3 µg/mL"}
{"smiles": "OC[C@H]1O[C@@H](n2c(Cl)nc3cc(Cl)c(Cl)cc32)[C@H](O)[C@@H]1O", "strain or isolate": "TOWNE", "cell line": "HFF", "result": "<1.3 µM"}
{"smiles": "O=C(NCc1ccc(Cl)cc1)c1c[nH]c2ccc(C#CCO)cc2c1=O", "strain or isolate": "DAVIS", "result": "<4.7 µM"}
{"smiles": "COc1cc(OC)c(NC(=S)Nc2ccc(NC(C)=O)cc2)cc1Cl", "strain or isolate": "16 isolates", "result": "<0.384 µM"}
{"smiles": "C[C@H](NC(=S)Nc1ccc(NC(=O)c2csnn2)cn1)c1cc(C(F)(F)F)cc(C(F)(F)F)c1", "cell line": "HFF", "result": "0.08 µg/mL"}
{"smiles": "Nc1nc2c(ncn2COC(CO)CO)c(=O)[nH]1", "strain or isolate": "TOWNE", "cell line": "HFF", "result": "<1.6 µM"}
{"smiles": "OC[C@H]1O[C@@H](n2c(Cl)nc3cc(Cl)c(Cl)cc32)[C@H](O)[C@@H]1O", "result": "<0.2 µM"}
{"smiles": "OC[C@H]1O[C@@H](n2c(Br)nc3cc(Cl)c(Cl)cc32)[C@H](O)[C@@H]1O", "strain or isolate": "2916R (1263W94-resistant)", "cell line": "HFF", "result": "<46 µM"}
{"smiles": "Nc1nc2c(ncn2COC(CO)CO)c(=O)[nH]1", "strain or isolate": "TOWNE", "result": "<1.4 µM"}
{"smiles": "O[C@@H]1[C@H](O)CO[C@H]1n1c(Cl)nc2cc(Cl)c(Cl)cc21", "strain or isolate": "TOWNE", "cell line": "HFF", "result": "<0.12 µM"}
{"smiles": "O=C(Nc1ccccc1NC(=S)NCCOc1cccc(Cl)c1)c1ccccc1F", "cell line": "HFF", "result": ">0.5 µg/mL"}
{"smiles": "C[C@@H]1O[C@@H](n2c(Cl)nc3cc(Cl)c(Cl)cc32)[C@H](O)[C@@H]1O", "strain or isolate": "2916 (bdcrb maribavir-resistant)", "cell line": "HFF", "result": "0.7 µM"}
{"smiles": "CCCC(C)Nc1ccc(Oc2ccc(O)cc2)cc1", "strain or isolate": "XBAF4-3-1 (ganciclovir-resistant)", "result": "0.35 µM"}
{"smiles": "CC(C)Oc1ccccc1CNC(=O)c1ccc2cnccc2n1", "strain or isolate": "TOWNE", "cell line": "HFF", "result": "1.8 µM"}
{"smiles": "Oc1ccc(Oc2ccc(NC3CCCCCCC3)cc2)cc1", "result": "6.7 µM"}
{"smiles": "Nc1nc2c(ncn2COC(CO)CO)c(=O)[nH]1", "cell line": "HFF", "result": "1.8 µM"}
{"smiles": "OC[C@H]1O[C@@H](n2c(Br)nc3cc(Cl)c(Cl)cc32)[C@H](O)[C@@H]1O", "strain or isolate": "AD169", "cell line": "MRC-5", "result": "0.018 µM"}
{"smiles": "O=C(NCCc1ccccc1)C1=Cc2ccncc2CC1", "strain or isolate": "TOWNE", "cell line": "HFF", "result": ">34 µM"}
{"smiles": "COc1ccccc1C(=O)Nc1ccc(NC(=S)NCCc2cc3ccccc3o2)cc1", "cell line": "HFF", "result": ">10 µg/mL"}
{"smiles": "CCC(C)Nc1ccc(Oc2cccc(O)c2)cc1", "result": "32.5 µM"}
{"smiles": "C[C@H](NC(=S)Nc1ccc(NC(=O)c2cncs2)nc1)c1cc(C(F)(F)F)cc(C(F)(F)F)c1", "cell line": "HFF", "result": "0.001 µg/mL"}
{"smiles": "CCC(C)Nc1ccc(Oc2ccc(O)c(F)c2)cc1", "result": "15 µM"}
{"smiles": "Nc1nc2c(ncn2COC(CO)CO)c(=O)[nH]1", "strain or isolate": "Recombinant C4 (D341E)", "result": "<3.7 µM"}
{"smiles": "Cn1cc(C(=O)NCc2ccc(Cl)cc2)c(=O)c2cc(CN3CCOCC3)ccc21", "strain or isolate": "DAVIS", "cell line": "HFF", "result": "0.8 µM"}
{"smiles": "CSc1nnnc2c1ncn2[C@@H]1O[C@H](CO)[C@@H](O)[C@H]1O", "cell line": "HFF", "result": "0.3 µM"}
{"smiles": "CC(C)Nc1nc2cc(Cl)c(Cl)cc2n1[C@H]1O[C@@H](CO)[C@H](O)[C@@H]1O", "strain or isolate": "TOWNE", "cell line": "HFF", "result": "<0.6 µM"}

A second listing of 2 rows from above:

{"smiles": "CCC(C)Nc1ccc(Oc2cccc(O)c2)cc1", "result": "32.5 µM"}
{"smiles": "OC[C@H]1O[C@@H](n2c(Br)nc3cc(Cl)c(Cl)cc32)[C@H](O)[C@@H]1O", "strain or isolate": "2916R (1263W94-resistant)", "cell line": "HFF", "result": "<46 µM"}

Neighbouring rows are from separate reports.